Consider two molecules from patent EP4296674A1 (Université Toulouse III - Paul Sabatier, dated 2023).

Numbering of substitutions follows the chain as printed. Names may count otherwise.

Test [1] concerns the target T1, N-terminal His6-tagged HadD(H42F) of Mycobacterium tuberculosis (Mycobacterium tuberculosis).
T1 chain: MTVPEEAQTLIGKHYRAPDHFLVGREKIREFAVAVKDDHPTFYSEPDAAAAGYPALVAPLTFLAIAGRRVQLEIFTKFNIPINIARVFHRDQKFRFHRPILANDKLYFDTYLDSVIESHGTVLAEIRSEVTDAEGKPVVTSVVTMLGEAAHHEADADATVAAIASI
Kind of test: coproduction in E. coli, IMAC purification through the His tag on HadD, SEC.

Test [2] concerns the target T2, N-terminal His6-tagged HadD(H42Q) of Mycobacterium tuberculosis (Mycobacterium tuberculosis).
T2 chain: T1 chain with F42Q
The test is described as above.

B1: HadB(H41F) of Mycobacterium tuberculosis (enzyme)
chain: MALREFSSVKVGDQLPEKTYPLTRQDLVNYAGVSGDLNPIFWDDEIAKVVGLDTAIAHGMLTMGIGGGYVTSWVGDPGAVTEYNVRFTAVVPVPNDGKGAELVFNGRVKSVDPESKSVTIALTATTGGKKIFGRAIASAKLA
B1: the binding result in test [1] was “binds”.

B2: HadB protein of Mycobacterium tuberculosis (untagged) (enzyme)
chain: B1 chain with F41H
Turning to B2, the binding result in test [1] and in test [2] was “binds” each time.
